Values quoted from earlier work in paper PMC7076857 (Toxins, 2020).

Experiments:
PP1 [1] = conditions: read-out: IC50 in PP1 assay; ref 7 (Matthiensen et al.); cited from earlier work
PP1 [2] = conditions: read-out: IC50 in PP1 assay; 2 and 3 both had the same IC50 value; ref 6 (Park et al.); cited from earlier work

For [D-Leu^1]MC-LR, the IC50 (PP1 [1]) is given as 4.4 nM and the IC50 (PP1 [2]) is given as 0.3 nM.

Read-outs that look alike come from different tables or passages of the source.
